Record: PubChem BioAssay AID504761 (Drosophila RNAi Screening Center, 2011)
The screen tested about 22,000 reagents; shown is a random part of those that have a named target and a result. Of all reagents, 116 (0.52%) got an active call. 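Calls depend on retest data that are not deposited; infection was ranked per plate without normalising between plates; the unit of the infection score is not given.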 Raw values are not corrected between plates. Entries without a mark were called inactive. A plus sign joins genes that one reagent is predicted to hit. Not all columns of the deposit are shown. No sequences are given here. The record does not give: the amount of reagent, the time to read-out.

Aim: 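Fly genes whose silencing reduces dengue virus type 2 infection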 (primary screen)
System: D.Mel-2 cells from Drosophila
Knock-down reagent: long dsRNA against Drosophila genes
Treatment: infection with dengue virus type 2; dose and infection time not stated
Measured: 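Cells stained for dengue envelope protein and imaged; percent of infected cells per well on duplicate plates, ranked by infection, with stained nuclei counted for cell number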
Reading the numbers: infection score: higher = more virus-infected cells; cell count: higher = more cells in the well
Rule for the call: 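Low infection ranks in the two replicates (chance level up to 0.065) followed by a retest with a 1.5-fold or larger significant decrease, p below 0.05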
Meaning of the calls: active = confirmed: knock-down lowers infection; inactive = not picked or not confirmed

CG4119 [DRSC17741]
- infection score, replicate 1: 2.38
- cell count, replicate 1: 5117

CG4119 [DRSC27945]
- infection score, replicate 1: 35.4
- cell count, replicate 1: 3412

CG13877 + pyx [DRSC08347]
- infection score, replicate 1: 18.5
- cell count, replicate 1: 5792

Madm [DRSC12129]
- infection score, replicate 1: 9.57
- cell count, replicate 1: 6136

Madm [DRSC25999]
- infection score, replicate 1: 4.88
- cell count, replicate 1: 6150

CG14422 [DRSC17919]
- infection score, replicate 1: 1.49
- cell count, replicate 1: 6304

CG14422 [DRSC25359]
- infection score, replicate 1: 15.7
- cell count, replicate 1: 4148

CG13720 [DRSC08329]
- infection score, replicate 1: 5
- cell count, replicate 1: 5880

CG13720 [DRSC23787]
- infection score, replicate 1: 5.8
- cell count, replicate 1: 6143

rux [DRSC18829]
- infection score, replicate 1: 4.07
- cell count, replicate 1: 6283

gwl [DRSC16305]
- infection score, replicate 1: 1.33
- cell count, replicate 1: 5102

Naxe [DRSC18251]
- infection score, replicate 1: 7.93
- cell count, replicate 1: 4424

CG31678 [DRSC02618]
- infection score, replicate 1: 12.4
- cell count, replicate 1: 6663

CG31678 [DRSC02619]
- infection score, replicate 1: 3.23
- cell count, replicate 1: 6542

CG18636 [DRSC02685]
- infection score, replicate 1: 19.1
- cell count, replicate 1: 5799

CG18636 [DRSC24922]
- infection score, replicate 1: 22.9
- cell count, replicate 1: 6841

Hsc70-5 [DRSC07442]
- infection score, replicate 1: 8.08
- cell count, replicate 1: 4580

Hsc70-5 [DRSC24015]
- infection score, replicate 1: 4.24
- cell count, replicate 1: 3706

CG32461 [DRSC11594]
- infection score, replicate 1: 0.61
- cell count, replicate 1: 6049

CG5011 [DRSC00039]
- infection score, replicate 1: 3.05
- cell count, replicate 1: 6649

CG5011 [DRSC00674]
- infection score, replicate 1: 3.8
- cell count, replicate 1: 5993

CG5011 [DRSC29184]
- infection score, replicate 1: 11.3
- cell count, replicate 1: 2952

NimA [DRSC01353]
- infection score, replicate 1: 2.31
- cell count, replicate 1: 5800

NimA [DRSC22170]
- infection score, replicate 1: 4.28
- cell count, replicate 1: 6139

NimA [DRSC28421]
- infection score, replicate 1: 6.78
- cell count, replicate 1: 5133

NimA [DRSC28852]
- infection score, replicate 1: 13
- cell count, replicate 1: 1859

Alg11 [DRSC11647]
- infection score, replicate 1: 27.5
- cell count, replicate 1: 6048

As entered above:
CG18636 [DRSC24922], infection score, replicate 1 = 22.9
Naxe [DRSC18251], cell count, replicate 1 → 4424
